A mixed list of measured activities; the numbers were collected in NIAID ChemDB.

Common to all: whole-cell or culture tests; organism: HIV-1; measure: inhibition

Percent inhibition refers to the dose given; in toxicity tests it is the harm to the cells. Conditions beyond the fields shown may differ between rows. An empty or dashed field is not shown.

structure	mutations	dose	strain	cell line	setting	result
CC(C)CN(C[C@@H](O)[C@H](Cc1ccccc1)NC(=O)[C@@H](NC(=O)CNC(C)(C)c1cccc(F)c1)C(C)(C)C)S(=O)(=O)c1ccc(N)cc1	-	90 µM	RF	MT-2	-	<1%
Cc1cn([C@@H]2C[C@H](CO)N(C#N)C2)c(=O)[nH]c1=O	-	100 µM	-	-	-	0%
Cc1cn([C@H]2C[C@H](CO)[C@@H](CO)S2)c(=O)[nH]c1=O	-	100 µg/mL	-	MT-4	-	0%
C/C(=C(/CCO)SS/C(CCO)=C(\C)N(C=O)Cc1cnc(C)nc1N)N(C=O)Cc1cnc(C)nc1N	-	250 µM	LAV-1	MT-4	-	98%
Fc1ccccc1C1SCc2nc3cc4ccccc4cc3n21	-	200 µM	RF	CEM + CEM-SS	-	2.59%
N#Cc1cc(Cl)cc(Oc2c(Cl)ccc3c2nnn3Cc2[nH]nc3nc(N)ccc23)c1	K103N	0.0058 µM	-	MT-4	-	>95%
O=S(=O)(c1ccc(Cl)c2ccncc12)N1CCNCC1	-	16.7 µM	LAI	-	-	8.25%
CCOP(=O)(Cn1cc(C2N=C3C(N)=NC=NC3N2C)nn1)OCC	-	100 µM	IIIB	CEM	-	0%
NC1=NS(=O)(=O)N([C@@H]2CS[C@@H](CO)O2)C=C1	-	100 µg/mL	RF	MT-4	-	0%
N#Cc1cccc(C2SCc3nc4cc5ccccc5cc4n32)c1	-	200 µM	RF	CEM + CEM-SS	-	8.54%
Nc1ncnc2c1ncn2Cc1cn(C(O)P(=O)(O)O)nn1	-	100 µM	IIIB	-	-	0%
Cc1ccc(S(=O)(=O)N(CC(C)C)C[C@@H](O)[C@H](Cc2ccccc2)NC(=O)[C@@H](NC(=O)CNC(C)(C)c2cccc(F)c2)C(C)(C)C)cc1N	-	90 µM	RF	MT-2	-	<1%
COc1ccccc1CC(=O)Nc1nc(-c2ccccc2)cs1	-	50 µg/mL	NL4-3	TZM-bl	-	89.63%
CCOP(=O)(CC(O)n1cc(N2C=CC(NC(C)=O)NC2=O)nn1)OCC	-	100 µM	IIIB	-	-	0%
CC(C)CN(C[C@@H](O)[C@H](Cc1ccccc1)NC(=O)[C@@H](NC(=O)[C@@H](C)NC(C)(C)c1ccccc1)C(C)(C)C)S(=O)(=O)c1ccc2ncsc2c1	-	90 µM	RF	MT-2	-	<1%
O=C(Cc1ccccc1[N+](=O)[O-])Nc1nc(-c2ccccc2)cs1	-	50 µg/mL	NL4-3	TZM-bl	-	58.18%
CCOP(=O)(CC(O)n1cc(-n2c[n+](C)c(=O)[nH]c2=O)nn1)OCC	-	100 µM	IIIB	-	-	0%
CCOCn1c2c(c(=O)[nH]c1=O)-c1ccccc1CC2	-	5 µM	IIIB	C8166	-	41%
O=C(Cc1ccccc1Cl)Nc1nc(-c2ccccc2)cs1	-	50 µg/mL	NL4-3	TZM-bl	-	68.43%
C=C1C[C@@H](CO)O[C@H]1n1ccc(=O)[nH]c1=O	-	100 µM	-	H9	-	0%
Clc1cc2nc(C3CCCCO3)[nH]c2cc1Cl	-	2 µM	RF	CEM + CEM-SS	-	5.2%
Cc1cn([C@H]2C=C(CO)[C@@H](CO)S2)c(=O)[nH]c1=O	-	100 µg/mL	-	MT-4	-	0%
O=c1ccn(-c2cn(C(O)P(=O)(O)O)nn2)c(=O)[nH]1	-	100 µM	IIIB	CEM	-	0%
CN(C[C@@H](CCN1CCC2(CC1)CS(=O)c1ccccc12)c1ccc(Cl)c(Cl)c1)S(=O)(=O)c1ccc(-c2ccccn2)s1	-	12.5 µM	YU2	PBMC	-	<95%
CC1CN(S(=O)(=O)c2cccc3cnccc23)CCN1	-	16.7 µM	LAI	-	-	8.3%
NC1=NS(=O)(=O)N(Cc2ccccc2)c2c1ncn2[C@@H]1CS[C@@H](CO)O1	-	100 µg/mL	RF	MT-4	-	0%
CC1(c2nc3ccccc3[nH]2)CCC(C(=O)O)C(C)(C)O1	-	200 µM	RF	CEM + CEM-SS	-	18.8%
C[n+]1cn(-c2cn(C(O)CP(=O)(O)O)nn2)c(=O)[nH]c1=O	-	100 µM	IIIB	CEM	-	0%
CC(C)=CCO[C@H]1C(=O)Nc2ccc(Cl)cc2[C@@]1(C#CC1CC1)C(F)(F)F	-	1 µM	RF	MT-2	-	90%
CO[C@H]1C[C@@H]2CC[C@@H](C)[C@@](O)(O2)C(=O)C(=O)N2CCCC[C@H]2C(=O)O[C@H]([C@H](C)C[C@@H]2CC[C@@H](O)[C@H](OC)C2)CC(=O)[C@H](C)/C=C(\C)[C@@H](O)[C@@H](OC)C(=O)[C@H](C)C[C@H](C)/C=C/C=C/C=C/1C	-	0.1 µM	BaL	TZM-bl	-	67%
C=C(C=O)[C@@H]1CC[C@@]2(C)C1C1CCC3[C@@]4(C)CC[C@H](O)C(C)(C)C4CC[C@@]3(C)[C@]1(C)C[C@@H]2O	-	1 µM	-	CEM.NKR-CCR5	-	60%
O=C1C=CN([C@H]2CS[C@@H](CO)O2)S(=O)(=O)N1	-	100 µg/mL	RF	MT-4	-	0%
Cc1cc(C)cc(C[C@@H]2[C@H](O)[C@@H](O)[C@@H](Cc3ccccc3)N(Cc3ccc4[nH]nc(N)c4c3)C(=O)N2Cc2ccccc2)c1	-	0.1 µM	HXB2	-	-	90%
CC1(c2nc3cc(Cl)c(Cl)cc3[nH]2)CCC(C(=O)O)C(C)(C)O1	-	20 µM	RF	CEM + CEM-SS	-	0.9%
O=C(Cc1ccc([N+](=O)[O-])cc1)Nc1nc(-c2ccccc2)cs1	-	50 µg/mL	NL4-3	TZM-bl	-	65.22%
COc1cccc(C(C)(C)NCC(=O)N[C@H](C(=O)N[C@@H](Cc2ccccc2)[C@H](O)CN(CC(C)C)S(=O)(=O)c2ccc(N)cc2)C(C)(C)C)c1	-	90 µM	RF	MT-2	-	<1%
O=C(O)[C@H]1O[C@@H](Oc2cc3oc(-c4ccccc4)cc(=O)c3c(O)c2O)[C@H](O)[C@@H](O)[C@@H]1O	-	40 µM	ENV(BAL31)	HOS-CD4-CXCR4 + HOS	-	80%
CC1=NNC(N)=N/C1=C\C(Sc1ccc(Cl)cc1)c1cc2ccccc2cc1O	-	6.33 µM	RF	MT-2	-	12.77%
CC(=O)NC1C=CN(c2cn(C(O)P(=O)(O)O)nn2)C(=O)N1	-	100 µM	IIIB	CEM	-	0%
CS(C)=O	-	16.7 µM	LAI	-	-	2%
CC(C)CN(C[C@@H](O)[C@H](Cc1ccccc1)NC(=O)[C@@H](NC(=O)CNC(C)(C)c1cccc(F)c1)C(C)(C)C)S(=O)(=O)c1ccc2ncccc2c1	-	90 µM	RF	MT-2	-	<1%
COC(=O)N1C[C@H](n2cc(C)c(=O)[nH]c2=O)C[C@@H]1CO	-	100 µM	-	-	-	0%
N#Cc1cc(Cl)cc(Oc2c(Cl)ccc3c2cnn3Cc2[nH]nc3ncccc23)c1	-	0.064 µM	-	MT-4	50% human serum	>95%
C[N+]1(C)[C@H](CC(=O)[O-])C[C@@H](O)[C@@H]1CO	-	10 µM	-	293T	pseudotyped	2.5%
CCOC(=O)/C=C/c1ccc(OC(=O)CCC(=O)Oc2c(C)c(C)c3c(c2C)CC[C@@](C)(CCC[C@H](C)CCC[C@H](C)CCCC(C)C)O3)cc1	-	10 µM	-	U1/HIV-1 (TNF-alpha stimulated) + U1	-	63%
Cc1nnc(N)nc1C/C=C/C(Sc1ccc(Cl)cc1)c1cccs1	-	2 µM	RF	MT-2	-	79.9%
CCC(C)[C@H](NC(=O)CNC(C)(C)c1cccc(F)c1)C(=O)N[C@@H](Cc1ccccc1)[C@H](O)CN(CC(C)C)S(=O)(=O)c1ccc2ncsc2c1	-	90 µM	RF	MT-2	-	<1%
NC1=NS(=O)(=O)N([C@H]2CS[C@@H](CO)O2)C=C1	-	100 µg/mL	RF	MT-4	-	0%
CC1CNCCN1S(=O)(=O)c1cccc2cnccc12	-	16.7 µM	LAI	-	-	98%
O=C1CC(C#CC2CC2)(C(F)(F)F)c2cc(Cl)ccc2N1	RT-L100I	0.992 µM	-	-	-	90%
CC(C)CN(C[C@@H](O)[C@H](Cc1ccccc1)NC(=O)[C@@H](NC(=O)[C@@H](C)NC(C)(C)c1ccccc1)C(C)(C)C)S(=O)(=O)c1ccc(N)cc1	-	90 µM	RF	MT-2	-	<1%
COc1ccc(CC(=O)Nc2nc(-c3ccccc3)cs2)cc1	-	50 µg/mL	NL4-3	TZM-bl	-	97.21%
N#Cc1cc(Cl)cc(Oc2c(Cl)ccc3c2nnn3Cc2[nH]nc3ncccc23)c1	-	0.0043 µM	-	MT-4	-	>95%
CC1=CN([C@@H]2CS[C@@H](CO)O2)S(=O)(=O)NC1=O	-	100 µg/mL	RF	MT-4	-	0%
NCCNS(=O)(=O)c1cccc2c(Cl)cccc12	-	16.7 µM	LAI	-	-	28%
CCOP(=O)(OCC)C(O)Cn1cc(-n2cc(C)c(=O)[nH]c2=O)nn1	-	100 µM	IIIB	CEM	-	0%
CC(C)CN(C[C@@H](O)[C@H](Cc1ccccc1)NC(=O)[C@@H](NC(=O)CCNC(C)(C)c1ccccc1)C(C)(C)C)S(=O)(=O)c1ccc(N)cc1	-	90 µM	RF	MT-2	-	<1%
O=S(=O)(O)c1c2ccccc2c(-c2c3nc(c(-c4c5ccccc5c(S(=O)(=O)O)c5ccccc45)c4ccc([nH]4)c(-c4c5ccccc5c(S(=O)(=O)O)c5ccccc45)c4nc(c(-c5c6ccccc6c(S(=O)(=O)O)c6ccccc56)c5ccc2[nH]5)C=C4)C=C3)c2ccccc12	-	50 µg/mL	89.6	-	-	90%

Again, the opening 5 rows:

CC(C)CN(C[C@@H](O)[C@H](Cc1ccccc1)NC(=O)[C@@H](NC(=O)CNC(C)(C)c1cccc(F)c1)C(C)(C)C)S(=O)(=O)c1ccc(N)cc1 ; dose: 90 µM ; strain: RF ; cell line: MT-2 ; result: <1%
Cc1cn([C@@H]2C[C@H](CO)N(C#N)C2)c(=O)[nH]c1=O ; dose: 100 µM ; result: 0%
Cc1cn([C@H]2C[C@H](CO)[C@@H](CO)S2)c(=O)[nH]c1=O ; dose: 100 µg/mL ; cell line: MT-4 ; result: 0%
C/C(=C(/CCO)SS/C(CCO)=C(\C)N(C=O)Cc1cnc(C)nc1N)N(C=O)Cc1cnc(C)nc1N ; dose: 250 µM ; strain: LAV-1 ; cell line: MT-4 ; result: 98%
Fc1ccccc1C1SCc2nc3cc4ccccc4cc3n21 ; dose: 200 µM ; strain: RF ; cell line: CEM + CEM-SS ; result: 2.59%